The values are deposited in ChEMBL (CHEMBL3988442, “University of Dundee, Small-Polar-MMV Screening Library” (2021)).

Mtb cholesterol medium: 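Growth of Mycobacterium tuberculosis over 4 days (cholesterol / DPPC medium with tyloxapol); the read-out is not stated. Tested at 500 µM. The record gives no direction; compounds that gave an IC50 in retests scored well above the rest, so higher reads as more growth inhibition. About 18,000 compounds were tested under these conditions; 5% (about 900) showed 50% or more at least once.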
Mtb glucose medium: 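Growth of Mycobacterium tuberculosis over 3 days (7H9 medium with glucose and tyloxapol); the read-out is not stated. Concentration: 500 µM. Direction is inferred from retests: higher values go with more growth inhibition. Size under these conditions: about 18,000 compounds, about 1,400 of them at 50% or above in at least one test.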

The filed quantity is “Percent Effect” (%).
The record does not define 0% and 100%; most values in the screen are far below 50% and negative numbers occur (in some assays of this library far below -100).
The entries come from a sample that favours strong results.
A dash means the value is not listed here; it may have been measured.

Compound	Mtb cholesterol medium	Mtb glucose medium
O=C(CCn1cccn1)N1CCc2sccc2C1	48.09	59.18
Cc1cc(C)cc(NC(=O)NCC2(O)CCNC2)c1 (stereo not given)	-	35.19
CO[C@H]1CN[C@H](c2nncn2C)C1	-	17.05
CN(C)C(=O)NC1CCNCC1	-	-4.62
CN(C)c1cc(CNC(=O)C2CCOCC2)ccn1	-	-5.101
NCc1noc(-c2ccsc2)n1	-13.93	-8.447
NCc1cc(Br)c2c(c1)OCO2	-	-8.937
Cc1cc(S(=O)(=O)NC(CN)C2CC2)c(F)cc1F (stereo not given)	-	55.27
CC(=O)NCCCSCc1csc(NC(C)=O)n1	-	-0.4497
CCN(C)C(C)C(=O)Nc1cccc(S(N)(=O)=O)c1 (stereo not given)	-	8.314
CN(CCOCc1ccccc1)C(=O)c1cnc[nH]1	-	15.79
CCC(C)NC(=O)Cc1ccc2c(c1)OCCO2 (stereo not given)	52.32	-
CN1C(=O)C[C@H](CN)[C@H]1c1ccccc1	-	-8.338
CN(C)C(=O)c1occc1Br	-5.043	8.509
CN(C)S(=O)(=O)NC(c1ccccc1)c1ccccc1	56.21	71.03
Cc1ccnc(CC2CCCN2)c1 (stereo not given)	9.159	-
NC(=O)COc1ccc(Br)cc1CNCC1CCCO1 (stereo not given)	12.06	-
CN(C)C(=O)CN1CCCC(CO)(CC2CC2)C1 (stereo not given)	2.499	-
Cc1cc(C(=O)CCC(=O)NC(C)CO)c(C)s1 (stereo not given)	7.838	-
N#Cc1ccccc1NCc1cccnc1	25.3	-
CS(=O)(=O)N1CCC(CN)C1 (stereo not given)	-	3.437
CC(C)(C)N1CCCN(C(=O)c2cc(Cl)c[nH]2)CC1	1.244	13.21
N#Cc1ccc(C(=O)Nc2cncc(Br)c2O)nc1	-	8.005
COC(=O)c1cc(CNC(=O)CC(C)C)ccc1OC	-	41.04
Cn1cc(Br)cc1C(=O)NCC1CC(=O)N(C2CC2)C1 (stereo not given)	-	31.37
Nc1nc(-c2ccc3c(c2)CCCC(=O)N3)cs1	28.93	47.58
CC(CO)(CO)NCc1cc2cc(F)ccc2o1	9.821	-
CC1NCCn2c(Cl)ccc21 (stereo not given)	-34.31	-
NC[C@@H]1C[C@H]2CC[C@H]1O2	11.4	-
Cc1cc(C)cc(OCC(=O)N2CCNC(=O)C2)c1	-	23.14
CC(C)OCc1nnc(C(C)N)o1 (stereo not given)	-10.01	-
CC(C)OC1CCC(N)CC1 (stereo not given)	-	-16.08
CCC(CC)NC(=O)Nc1ccn(CCN(C)C)n1	-	11.99
CCc1nnsc1C(=O)NCc1cnn(C)c1	-	-5.44
CCNS(=O)(=O)C1CCN(Cc2cn(C)nc2CC)C1 (stereo not given)	-	12.01
CC(C)S(=O)(=O)CCCn1nnc(-c2ccsc2)n1	62.4	69.45
Cc1cc(N2CCC2c2ccccc2)n2ncnc2n1 (stereo not given)	-	83.03
CCOC(=O)c1cc(NC(=O)C2CC2)c[nH]1	-	26.36
NC(=O)c1ccc(CNC(=O)CCc2ccccc2)o1	-	9.586
COc1cc(N2CCNCC2)ncn1	-	7.74
Cn1cc(CNC(=O)c2cccc(I)c2)cn1	31.85	56.39
CCc1ccc(CN(C)CCC(=O)NC2CC2)nc1	-	6.638
OC(CN1CCOCC12CCCC2)C(F)(F)F (stereo not given)	5.879	-
CC(C)(C)NC(=O)CNc1cc(CCN)ncn1	-6.433	-
NC(=O)NCC(=O)Nc1cccc(Cl)c1	-	-11.91
CC1CN(C)CCN1C(=O)NCc1ccccc1F (stereo not given)	-	15.92
CC(C)C(N)c1nc(-c2ccncc2)no1 (stereo not given)	13.33	34.63
O=C(NCCCNCc1cccnc1)c1ccsc1	13.3	-
O=C(NC1CC1)c1cn2ccccc2n1	-2.619	-
O=C(Nc1c[nH]nc1C1CCCNC1)C1CCCC1 (stereo not given)	-	5.391
NC1CCN(Cc2cc(O)c3cc(F)ccc3n2)C1 (stereo not given)	-14.14	-
c1cc(CC2CCNC2)ccn1 (stereo not given)	-	-3.364
CC(C)C(NCC(N)=O)c1ccc(F)cc1 (stereo not given)	-	57.41
CC(Cn1cncn1)Nc1ncccc1F (stereo not given)	-16.04	-
NCc1cnn(-c2cccc(Cl)c2)c1	56.44	70.61
O=S1(=O)CCC(Nc2cc([C@H]3C[C@@H](O)C3)ncn2)CC1	-	7.742
NC(=O)COc1cc(Cl)cc(Cl)c1	-	50.72
CC(C)NC(=O)Cn1c(S(C)(=O)=O)nc2ccccc21	-13.61	-7.342
NCC(O)C1CCOCC1 (stereo not given)	-10.17	-
CC(NC(=O)C1CCCC1)c1ccc(S(C)(=O)=O)cc1 (stereo not given)	-	-8.444
NS(=O)(=O)C1CCN(Cc2ccc(Br)c(F)c2)C1 (stereo not given)	44.21	58.15
COCCN(C(=O)C1CCCO1)c1ccc(C#N)cc1 (stereo not given)	-	-3.582
CCn1nnnc1NCc1sccc1C	10.15	28.77
CN(CCn1ccnc1)Cc1ccccc1OCCO	-	4.999
NCCNc1nccc(C(F)(F)F)n1	4.024	10.72
CNC(=O)C1CCCN(C(=O)C(C)(C)C)C1 (stereo not given)	-5.71	-

The first 4 entries again:

| Compound | Mtb cholesterol medium | Mtb glucose medium |
|---|---|---|
| `O=C(CCn1cccn1)N1CCc2sccc2C1` | 48.09 | 59.18 |
| `Cc1cc(C)cc(NC(=O)NCC2(O)CCNC2)c1` (stereo not given) | - | 35.19 |
| `CO[C@H]1CN[C@H](c2nncn2C)C1` | - | 17.05 |
| `CN(C)C(=O)NC1CCNCC1` | - | -4.62 |